Assay results reported in ChEMBL document CHEMBL3232785, “Basic quinolinonyl diketo acid derivatives as inhibitors of HIV integrase and their activity against RNase H function of reverse transcriptase” (J Med Chem, 2014).

Biological target: Human immunodeficiency virus type 1 integrase (Human immunodeficiency virus 1) (UniProt Q7ZJM1)
Assay: Ratio of IC50 for HIV1 integrase 3'-processing activity to IC50 for HIV1 integrase strand transfer activity

O=C(O)/C(O)=C/C(=O)c1cn(Cc2ccc(F)cc2)c2cc(N3CCOCC3)ccc2c1=O
Ratio IC50: 100

O=C(O)/C(O)=C/C(=O)c1cn(Cc2ccc(F)cc2)c2cc(N3CCN(CCCCl)CC3)ccc2c1=O
Ratio IC50: 100
